Anti-infective test results gathered from many reports (values: NIAID ChemDB through PubChem).

All rows: tests in culture; species: HIV-1

Rows are shuffled and stem from different studies.

smiles,strain,mutations,cells,endpoint,method,value
COc1cc(C)cc2c(-c3c(O)cc(O)c4c3C[C@H](C)N[C@H]4C)cc(-c3cc(-c4c(O)cc(O)c5c4C[C@H](C)N[C@H]5C)c4cc(C)cc(OC)c4c3O)c(O)c12,RF,,CEM + CEM-SS,EC50,,11 µM
CC[n+]1c(-c2ccccc2)c2cc(N)ccc2c2ccc(N)cc21,,,HeLa,EC50,,0.2 µM
CC(=O)N[C@@H]1CCN(c2cc(C)nn3c(-c4cccc(S(=O)(=O)N(C)C)c4)c(C)nc23)C1,,,H9,EC50,p24,0.5 µM
COc1cc(O)c(CC=C(C)C)c(O)c1C(=O)/C=C/c1ccc(O)cc1,IIIB,,PBMC,EC50,p24,50.55 µM
CC1CC(C)CN(S(=O)(=O)c2ccccc2[N+](=O)[O-])C1,10076-4,,HeLa,EC50,GFP / fluorescence,0.63 µM
COc1ccc(S(=O)(=O)N(CC[C@H](O)CN2CCN(C(=O)OCc3ccccc3)C[C@H]2C(=O)NC(C)(C)C)CC(C)C)cc1,IIIB,,CEM,EC90,p24,1 µM
C=C(C)COCn1c(C(=C)c2ccccc2)c(CC)c(=O)[nH]c1=O,IIIB,,MT-4,EC50,cytopathic effect / MTT,3.4 µM
COc1ccc(/C=C/CSc2nc(Cc3c(F)cccc3F)c(C)c(=O)[nH]2)cc1,NNRTI-resistant,RT-K103N,MT-4,EC50,cytopathic effect / MTT,>393 µM
CCOP(=O)(OCC)OC[C@H]1O[C@@H](n2cc(C)c(=O)[nH]c2=O)C[C@@H]1OS(C)(=O)=O,RF,,C8166,EC50,p24,>100 µM
CCc1c(Cc2c(Cl)cccc2Cl)nc(SC/C=C/c2ccc(C#N)cc2)[nH]c1=O,NNRTI-resistant,RT-K103N,MT-4,EC50,cytopathic effect / MTT,>34.82 µM
CC[n+]1c(-c2ccccc2)c2cc(NC(N)=O)ccc2c2ccc(N)cc21,,,HeLa,EC50,,3 µM
CCOCn1c(Cc2ccccc2)c(C(C)C)c(=O)[nH]c1=O,IIIB,RT-K103N Y181C,MT-4,EC50,cytopathic effect / MTT,>100 µM
CCOC(=O)CCCCCn1c(Cc2ccccc2)c(C(C)C)c(=O)[nH]c1=O,IIIB,,MT-4,EC50,cytopathic effect / MTT,88 µM
Nc1ccn([C@@H]2O[C@@H](CO)CC2(F)F)c(=O)n1,LAV,,PBMC,EC50,,>100 µM
COc1cccc2c(=O)c3c(OC)cc4c(c3oc12)[C@@H](OC(=O)C12CCC(C)(C(=O)O1)C2(C)C)[C@@H](OC(=O)C12CCC(C)(C(=O)O1)C2(C)C)C(C)(C)O4,NL4-3,,TZM-bl,EC50,luciferase,>4 µM
COc1ccc(-c2c(C)nc3c(N4CC[C@@H](NS(=O)(=O)c5ccccc5)C4)cc(C)nn23)cc1OC,,,H9,EC50,p24,0.5 µM
Cc1cc(C)c(S(=O)(=O)OCC2OC3OC4C(CO)OC(OC5C(CO)OC(OC6C(CO)OC(OC7C(CO)OC(OC8C(CO)OC(OC9C(C[n+]%10ccccc%10)OC(OC2C(O)C3O)C(O)C9O)C(O)C8O)C(O)C7O)C(O)C6O)C(O)C5O)C(O)C4O)c(C)c1,KK-1(AIDS),,MT-4,EC50,cytopathic effect / trypan blue,<62.5 µg/mL
COc1cc2c(c3oc4cc(Br)ccc4c(=O)c13)[C@@H](OC(=O)C13CCC(C)(C(=O)O1)C3(C)C)[C@@H](OC(=O)C13CCC(C)(C(=O)O1)C3(C)C)C(C)(C)O2,NL4-3,,TZM-bl,EC50,luciferase,>4 µM
O=C1Cc2c(cccc2-c2ccco2)C(=O)N1O,IIIB,,CEM-SS,EC50,cytopathic effect / absorbance,>10 µM
O=C(NC(Cc1ccccc1)C(=O)C(=O)C(=O)N(CC1CCCC1)S(=O)(=O)c1ccccc1)OC1COCOC1,IIIB,,CEM,EC90,p24,1 µM
C=CCOCn1c(C(=C)c2cc(C)cc(C)c2)c(CC)c(=O)[nH]c1=O,IIIB,RT-Y181C,MT-4,EC50,cytopathic effect / MTT,>100 µM
COc1cc2ccccc2cc1/C=N/NC(=O)c1cc(O)c(O)c(O)c1,IIIB,,CEM-SS,EC50,cytopathic effect / absorbance,>10 µM
C=C(c1cc(C)cc(C)c1)c1c(CC)c(=O)[nH]c(=O)n1COC/C=C/c1ccccc1,IIIB,RT-K103N Y181C,MT-4,EC50,cytopathic effect / MTT,>100 µM
Cc1ccc(NC(=O)CN2CCN(Cc3nc(-c4ccc(F)cc4)no3)CC2)cc1,89BZ167,,PBMC,EC50,RT activity,12.3 µM
C=C(c1cc(C)cc(C)c1)c1c(CC)c(=O)[nH]c(=O)n1COC/C(C)=C/c1ccccc1,IIIB,RT-K103N Y181C,MT-4,EC50,cytopathic effect / MTT,>100 µM
CC(=O)N1CCC(C(=O)N(CCCN2CCC(Cc3ccc(C(N)=O)cc3)CC2)c2ccc(C)c(Cl)c2)CC1,89BZ167,,CEMx174 5.25 M7,EC50,p24 / ELISA,>300 µM
COC(=O)Cn1c(Cc2ccccc2)c(C(C)C)c(=O)[nH]c1=O,IIIB,,MT-4,EC50,cytopathic effect / MTT,0.77 µM
Nc1nc(NC2CC2)c2ncn([C@H]3CO[C@@H](CO)O3)c2n1,HXB2(RT-K65R) Recombinant,RT-K65R,MT-2,EC50,RT activity,1 µM
CCCCCCCCCCCCCCCCCCCCCCOCC(C)(COCCCCCCCCCCCCCCCCCCCCCC)CO[C@]1(C(=O)O)C[C@H](OS(=O)(=O)O)[C@@H](NC(C)=O)[C@H]([C@H](OS(=O)(=O)O)[C@@H](COS(=O)(=O)O)OS(=O)(=O)O)O1,IIIB,,H9,EC50,p24,<10 µg/mL
O=C1Cc2ccc(-c3cc4ccccc4o3)cc2C(=O)N1O,IIIB,,CEM-SS,EC50,cytopathic effect / absorbance,>10 µM
C=Cc1cc(N(CC)CC)nc(SCc2ccc(OC)cc2)n1,NNRTI-resistant,RT-K103N,MT-4,EC50,cytopathic effect / MTT,3.8 µM
COC(=O)CCCn1cc(-c2cccc(C(=O)N[C@@H](Cc3ccccc3)C(=O)N(C)c3ccc(OC)cc3)c2)nn1,NL4-3,,TZM-bl,EC50,MTT,>35.99 µM
N=C1Sc2ccccc2C2=NCCCN12,92RW016,,PBMC,EC50,β-galactosidase,0.22 µM
C=C(c1cc(C)cc(C)c1)c1c(CC)c(=O)[nH]c(=O)n1COCC,IIIB,RT-Y181C,MT-4,EC50,cytopathic effect / MTT,17 µM
CC(C)c1c(Cc2ccccc2)n(CCCCC(N)=O)c(=O)[nH]c1=O,IIIB,,MT-4,EC50,cytopathic effect / MTT,6.9 µM
Nc1ncnc2c1ncn2[C@@H]1O[C@@H](CO)CC1(F)F,LAV,,PBMC,EC50,,>100 µM
COc1ccc(-c2c(C)nc3c(N4CC[C@@H](NC(=O)COc5ccccc5)C4)cc(C)nn23)cc1OC,,,H9,EC50,p24,0.2 µM
COc1ccc(N(C)C(=O)[C@H](Cc2ccccc2)NC(=O)c2cccc(-c3cn(C4CC(n5cc(C)c(=O)[nH]c5=O)OC4CO)nn3)c2)cc1,NL4-3,,TZM-bl,EC50,MTT,>29.42 µM
O=C1Cc2cc(-c3ccc4c(c3)OCO4)ccc2C(=O)N1O,IIIB,,CEM-SS,EC50,cytopathic effect / absorbance,>10 µM
CCOP(=O)(OCC)OC[C@H]1O[C@@H](n2cc(C)c(=O)[nH]c2=O)C[C@@H]1N=[N+]=[N-],RF,,C8166,EC50,p24,>100 µM
O=C1NC(=O)C(CS(=O)(=O)N(CC2CCCC2)C[C@@H](O)CN(CCc2ccccc2)C(=O)c2ccccc2)N1,IIIB,,CEM,EC90,p24,1 µM
Cc1ccnc2c1NC(=O)c1cccnc1N2C1CC1,MJ4 C,,HEK293T,EC50,luciferase,65.85 nM
CC1(C)CC(=O)C(S(=O)(=O)N(CC2CCCC2)C[C@@H](O)CN(CCc2ccccc2)C(=O)c2ccccc2)C(=O)S1,IIIB,,CEM,EC50,p24,<1 µM
CCCOP(=O)(OCCC)OC[C@H]1O[C@@H](n2cc(C)c(=O)[nH]c2=O)C[C@@H]1OC(C)=O,RF,,C8166,EC50,p24,>100 µM
O=C1Cc2cc(-c3cccs3)ccc2C(=O)N1O,IIIB,,CEM-SS,EC50,cytopathic effect / absorbance,>10 µM
CC(=O)N[C@@H]1CCN(c2cc(C)nn3c(-c4ccc5ccn(C)c5c4)c(C)nc23)C1,,,H9,EC50,p24,1 µM
O=C1Cc2ccc(I)cc2C(=O)N1O,IIIB,,CEM-SS,EC50,cytopathic effect / absorbance,>10 µM
COc1ccc(S(=O)(=O)N(CC(C)C)C[C@@H](O)CCN(CC2CCCC2)S(=O)(=O)CC2CCS(=O)(=O)CC2)cc1,IIIB,,CEM,EC90,p24,1 µM
COc1ccc(-c2c(C)nc3c(N4CC[C@@H](F)C4)cc(C)nn23)cc1OC,,,H9,EC50,p24,0.7 µM
CCCCOP(=O)(OCCCC)OC[C@H]1O[C@@H](n2cc(C)c(=O)[nH]c2=O)C[C@@H]1OC(C)=O,RF,,C8166,EC50,p24,>100 µM
CC(C)c1c(Cc2ccccc2)n(CCCO)c(=O)[nH]c1=O,IIIB,,MT-4,EC50,cytopathic effect / MTT,4.2 µM
Cc1cn([C@@H]2O[C@@H](CO)CC2(F)F)c(=O)[nH]c1=O,LAV,,PBMC,EC50,,>100 µM
CCc1c(C(C)c2c(F)cccc2F)nc(SC/C=C/c2ccc([N+](=O)[O-])cc2)[nH]c1=O,NNRTI-resistant,RT-Y181C,MT-4,EC50,cytopathic effect / MTT,>575 µM
CC(C)CN(CCC(O)CN1CCN(Cc2cccnc2)C[C@H]1C(=O)NC(C)(C)C)S(=O)(=O)c1ccccc1,IIIB,,CEM,EC90,p24,1 µM
C=CCOCn1c(C(=C)c2ccccc2)c(CC)c(=O)[nH]c1=O,IIIB,,MT-4,EC50,cytopathic effect / MTT,0.87 µM
CCOC(=O)CCCn1c(Cc2ccccc2)c(C(C)C)c(=O)[nH]c1=O,IIIB,,MT-4,EC50,cytopathic effect / MTT,1.6 µM
COc1ccc(-c2c(C)nc3c(N4CCN(C(=O)OC(C)(C)C)C4)cc(C)nn23)cc1OC,,,H9,EC50,p24,0.9 µM
C#CCOCn1c(C(=C)c2cc(C)cc(C)c2)c(CC)c(=O)[nH]c1=O,IIIB,RT-Y181C,MT-4,EC50,cytopathic effect / MTT,17 µM

A second listing of 3 rows from above:

smiles | strain | mutations | cells | endpoint | method | value
COC(=O)CCCn1cc(-c2cccc(C(=O)N[C@@H](Cc3ccccc3)C(=O)N(C)c3ccc(OC)cc3)c2)nn1 | NL4-3 |  | TZM-bl | EC50 | MTT | >35.99 µM
O=C1Cc2ccc(I)cc2C(=O)N1O | IIIB |  | CEM-SS | EC50 | cytopathic effect / absorbance | >10 µM
C=Cc1cc(N(CC)CC)nc(SCc2ccc(OC)cc2)n1 | NNRTI-resistant | RT-K103N | MT-4 | EC50 | cytopathic effect / MTT | 3.8 µM

ECn: concentration that inhibits the pathogen or its effect by n%. An empty or dashed field is not shown.